Pooled drug test results. Numbers come from NIAID ChemDB, via PubChem.

All rows: growth or infection tests; agent: Influenza A virus; cells: MDCK; measure: EC50

ECn: concentration that inhibits the pathogen or its effect by n%. Blank or dashed fields: not listed here. a–b is a range or a potency band. Rows are shuffled and stem from different studies.

SMILES,strain or isolate,read by,value
CN(CC1(CO)CCC1)c1cc(Cl)nc(N)n1,H1N1 A/PR/8/34,plaque count,>120 µM
CCC(CC)[C@H](NC(C)=O)[C@@H]1[C@H](O)[C@@H](C(=O)O)C[C@H]1N=C(N)N,Influenza A/Johannesburg/33/94 (H3N2),,0.16 µM
COc1ncc2ncn([C@@H]3O[C@H](CO)[C@@H](O)[C@H]3F)c2n1,A/Sweden,plaque count,>100 µM
CC(=O)N[C@H]1[C@H]([C@H](O)[C@H](O)CO)OC(C(=O)O)=C[C@@H]1N=C(N)N,H1N1 A/TEXAS/36/91,plaque count,0.07 µM
CC(N)C12CC3CC(CC(C3)C1)C2,H1N1 10 French isolates,ELISA,0.051 µg/mL
Nc1nc2c(ncn2[C@@H]2O[C@H](CO)[C@@H](O)[C@H]2F)c(=O)[nH]1,A/NWS/33/H1N1,plaque count,20 µM
Nc1nc(Cl)cc(NCC2(CO)CC(CCCc3ccccc3)C2)n1,H1N1 A/PR/8/34,plaque count,0.083–0.19 µM
Cc1ccc(C(=S)NC[C@@]2(C)C[C@H](O)CC(C)(C)C2)cc1,H1N1 A/WSN/33,cytopathic effect,>10 µg/mL
CCCOc1nc2c(nc(N)n2[C@@H]2O[C@H](CO)[C@@H](O)[C@H]2F)c(=O)[nH]1,A/Sweden,plaque count,36 µM
Cc1ccc(C)c(C(=S)NC[C@@]2(C)C[C@@H](O)CC(C)(C)C2)c1,H1N1 A/WSN/33,cytopathic effect,>10 µg/mL
CCC(CC)O[C@@H]1C=C(C(=O)O)C[C@H](N)[C@H]1NC(C)=O,H1N1 A/TEXAS/36/91,,0.17 µM
CNc1ncc2ncn([C@@H]3O[C@H](CO)[C@@H](O)[C@H]3F)c2n1,A/Sweden,plaque count,>100 µM
C/C=C\[C@@H]1C[C@H](C(=O)O)N[C@H]1[C@@H](NC(C)=O)[C@](C)(CCC)OC,H1N1 isolate C1D,plaque count,≤0.025 µg/mL
CCCC(CCC)C(NC(C)=O)C1CC(C(=O)O)CC1N=C(N)N,Influenza A/Washington/05/96 (H3N2),,0.01 µM
CCC,Singapore/6/86 (H1),,>50 µM
CC(=O)N[C@H]1[C@H]([C@H](O)[C@H](O)CO)OC(C(=O)O)=C[C@@H]1N=C(N)N,H3N2 A/X-31,,0.4 µM
CC1(C)C[C@H](O)C[C@](C)(CNC(=S)c2cccc(Cl)c2)C1,H1N1 A/WSN/33,cytopathic effect,>10 µg/mL
Nc1nc(Cl)cc(NCC2(CO)CCCC2)n1,H1N1 A/PR/8/34,plaque count,26–51 µM
CC1(C)C[C@@H](O)C[C@](C)(CNC(=S)c2cccc([N+](=O)[O-])c2)C1,H1N1 A/WSN/33,cytopathic effect,>10 µg/mL
Nc1nc(Cl)cc(NCCC2(CO)CCC2)n1,H1N1 A/PR/8/34,plaque count,>120 µM
N#CNc1nncs1,A/Russia,plaque count,0.37 µg/mL
Cc1cccc(C(=S)NC[C@@]2(C)C[C@@H](O)CC(C)(C)C2)c1,H1N1 A/WSN/33,cytopathic effect,>10 µg/mL

The last 3 rows once more:

SMILES | strain or isolate | read by | value
Nc1nc(Cl)cc(NCCC2(CO)CCC2)n1 | H1N1 A/PR/8/34 | plaque count | >120 µM
N#CNc1nncs1 | A/Russia | plaque count | 0.37 µg/mL
Cc1cccc(C(=S)NC[C@@]2(C)C[C@@H](O)CC(C)(C)C2)c1 | H1N1 A/WSN/33 | cytopathic effect | >10 µg/mL